Compound potency records, mixed from different reports. Data source: NIAID ChemDB in PubChem.

Common to all: tests in culture; species: Mycobacterium avium complex; endpoint: MIC50

Neighbouring rows are from separate reports.

smiles,strain or isolate,result
CC[C@H]1OC(=O)C[C@@H](O)[C@H](C)[C@@H](O[C@@H]2O[C@H](C)[C@H](O[C@H]3C[C@@](C)(O)[C@@H](O)[C@H](C)O3)[C@H](N(C)C)[C@H]2O)[C@@H](CC=O)C[C@@H](C)C(=O)/C=C/C(C)=C/[C@@H]1CO,28 strains,16 µg/mL
O=C(N1CCC(CN=c2cc3n(-c4ccc(Cl)cc4)c4ccccc4nc-3cc2Nc2ccc(Cl)cc2)CC1)N1CC1,5 strains,2 µg/mL
CCNc1cc2c(cc1[N+](=O)[O-])c(=O)c(C(=O)O)cn2CC,-,>200 µM
C=C(C)CC[C@H]1CN(c2ccn(N3CCOCC3)c2)C(=O)O1,-,>100 µM
Cc1c(F)c(N2CCNC(C)C2)cc2c1c(=O)c(C(=O)O)cn2C1CC1,41 clinical isolates,4 µg/mL
O=C(O)c1cn(-c2ccc(F)cc2F)c2cc(Nc3ccc(F)cc3F)c([N+](=O)[O-])cc2c1=O,-,>200 µM
CC[C@H]1OC(=O)[C@H](C)[C@@H](O[C@H]2C[C@@](C)(OC)[C@@H](O)[C@H](C)O2)[C@H](C)[C@@H](O[C@@H]2O[C@H](C)C[C@H](N(C)C)[C@H]2O)[C@](C)(OC)C[C@@H](C)C(=O)[C@H](C)[C@@H](O)[C@]1(C)O,19 strains (HIV+),8 µg/mL
Cc1cc(-c2cc3c(cc2F)c(=O)c(C(=O)O)cn3C2CC2)cc(C)n1,30 strains,0.5 µg/mL
O=C(O)c1cn(N2CCSCC2)c2cc(NC3CC3)c([N+](=O)[O-])cc2c1=O,-,1.1 µM
CC1COc2c(N3CCN(C)CC3)c(F)cc3c(=O)c(C(=O)O)cn1c23,18 strains,12.5 µg/mL
CC[C@H]1OC(=O)C[C@@H](O)[C@H](C)[C@@H](O[C@@H]2O[C@H](C)[C@H](O)[C@H](N(C)C)[C@H]2O)[C@@H](CC=O)C[C@@H](C)C(=O)/C=C/C(C)=C/[C@@H]1COC(C)=O,28 strains,≥64 µg/mL
O=C(O)c1cn(C2CCC2)c2cc(NC3CCC3)c(F)cc2c1=O,-,>200 µM
CN1CCN(CCCN=c2cc3n(-c4ccc(Cl)cc4)c4ccccc4nc-3cc2Nc2ccccc2)CC1,10 strains (HIV+),1.7 µg/mL
CO[C@H]1/C=C/O[C@@]2(C)Oc3c(C)c(O)c4c(O)c(c(N5CCN(Cc6c(C)cc(C)cc6C)CC5)c(O)c4c3C2=O)NC(=O)/C(C)=C\C=C\[C@H](C)[C@H](O)[C@@H](C)[C@@H](O)[C@@H](C)[C@H](OC(C)=O)[C@@H]1C,67 strains (HIV+),0.25 µg/mL
CN1CCCC1CCN=c1cc2n(-c3ccc(Cl)cc3)c3ccccc3nc-2cc1Nc1ccccc1,10 strains (HIV+),1.6 µg/mL
CC[C@H]1OC(=O)[C@H](C)C(=O)[C@H](C)[C@@H](O[C@@H]2O[C@H](C)C[C@H](N(C)C)[C@H]2O)[C@](C)(OC)C[C@@H](C)C(=O)[C@H](C)[C@H]2N(NCCCc3ccnc4ccccc34)C(=O)O[C@]12C,24 strains (HIV+),9 µg/mL
O=C(O)c1cn(C2CC2)c2c(Cl)c(N3C[C@@H]4CCCN[C@@H]4C3)c(F)cc2c1=O,101,0.25 µg/mL
C[C@H]1NCc2cc(-c3ccc4c(=O)c(C(=O)O)cn(C5CC5)c4c3OC(F)F)ccc21,6 strains,2 µg/mL
CC(C)NC(=O)N1CCC(CN=c2cc3n(-c4ccc(Cl)cc4)c4ccccc4nc-3cc2Nc2ccc(Cl)cc2)CC1,5 strains,2 µg/mL
CC1COc2c(N3CCN(C)CC3)c(F)cc3c(=O)c(C(=O)O)cn1c23,18 strains,12.5 µg/mL
CCCC(C)Nc1cc2c(cc1[N+](=O)[O-])c(=O)c(C(=O)O)cn2C(C)CCC,-,>200 µM
C[C@H]1NCc2cc(-c3ccc4c(=O)c(C(=O)O)cn(C5CC5)c4c3OC(F)F)ccc21,8 strains,4 µg/mL
CC[C@H]1OC(=O)[C@H](C)[C@@H](O[C@H]2C[C@@](C)(OC)[C@@H](OC(C)=O)[C@H](C)O2)[C@H](C)[C@@H](O[C@@H]2O[C@H](C)C[C@H](N(C)C)[C@H]2O)C(C)(O)C[C@@H](C)/C(=N\OCCCC2CCCCC2)[C@H](C)[C@@H](O)[C@]1(C)O,27 strains,1.56 µg/mL
CC[C@H]1OC(=O)[C@H](C)[C@@H](O[C@H]2C[C@@](C)(OC)[C@@H](O)[C@H](C)O2)[C@H](C)[C@@H](O[C@@H]2O[C@H](C)C[C@H](N(C)C)[C@H]2O)[C@](C)(O)C[C@@H](C)CN(C)[C@H](C)[C@@H](O)[C@]1(C)O,28 strains,16 µg/mL
CCn1cc(C(=O)O)c(=O)c2cc(F)c(N3CCN(C)CC3)cc21,89 isolates,>16 µg/mL
CC[C@H]1OC(=O)[C@H](C)[C@@H](O[C@H]2C[C@@](C)(OC)[C@@H](O)[C@H](C)O2)[C@H](C)[C@@H](O[C@@H]2O[C@H](C)C[C@H](N(C)C)[C@H]2O)[C@](C)(O)C[C@@H](C)C(NCCOC)[C@H](C)[C@@H](O)[C@]1(C)O,28 strains,≥64 µg/mL
COc1cccc2c1[n+]([O-])c1cccc(O)c1[n+]2[O-],5 strains,0.125 µg/mL

A second listing of 2 rows from above:

smiles	strain or isolate	result
CCn1cc(C(=O)O)c(=O)c2cc(F)c(N3CCN(C)CC3)cc21	89 isolates	>16 µg/mL
O=C(O)c1cn(-c2ccc(F)cc2F)c2cc(Nc3ccc(F)cc3F)c([N+](=O)[O-])cc2c1=O	-	>200 µM

MIC50, MIC90 and the like: level of inhibition, or share of isolates inhibited. Blank or dashed fields: not listed here.